Data taken from US20190086410A1, “FUNCTION-BASED PROBES FOR ENVIRONMENTAL MICROBIOME ANALYSIS AND METHODS OF MAKING AND USING THE SAME” (Battelle Memorial Institute, priority 2017, published 2019).

System: β-glucuronidases from Escherichia coli, Streptococcus agalactiae, and Clostridium perfringens
Conditions: catalytic residues mutated from glutamate to alanine

## C#CCCCC(=O)Nc1ccc(OC2OC(C(=O)O)C(O)C(O)C2O)c(C(F)F)c1 (stereo not shown) [GlcA-ABP, 6-(2-(difluoromethyl)-4-(hex-5-ynamido)phenoxy)-3,4,5-trihydroxytetrahydro-2H-pyran-2-carboxylic acid]
  probe labeling of catalytic-residue mutants: abolished probe labeling
